Measured values from several laboratories, pooled; numbers as filed in NIAID ChemDB.

Shared fields: tests on isolated targets; organism: HIV-1; protein: Integrase; measure: IC50

Rows are shuffled and stem from different studies. ICn: concentration for n% inhibition. Two numbers with a dash give a range or band.

{"compound": "O=C1c2c(O)c(=O)c(-c3nccs3)cn2CCN1Cc1ccc(F)cc1", "method": "ELISA", "value": "0.01–0.1 µM"}
{"compound": "CC(=O)NC1CN(C)CCn2c1nc(C(=O)NCc1ccc(F)cc1)c(O)c2=O", "method": "ELISA", "value": "<10 µM"}
{"compound": "O=C1c2c(O)c(=O)c(-c3nccs3)cn2CCN1CCCCc1ccccc1", "method": "ELISA", "value": "0.01–0.1 µM"}
{"compound": "CN(CCCc1ccc(F)cc1)C(=O)/C=C(\\O)C(=O)O", "method": "strand transfer", "value": "<70 µM"}
{"compound": "O=C1c2c(O)c(=O)c(-c3nccs3)cn2CCN1CCCc1ccc(F)cc1", "method": "ELISA", "value": "0.01–0.1 µM"}
{"compound": "CC1(C)c2nc(C(=O)NCc3ccc(F)cc3)c(O)c(=O)n2CCN1Cc1cnco1", "method": "ELISA", "value": "<10 µM"}
{"compound": "COC(=O)C(CCSC)n1c(=O)c(O)c2n(c1=O)CCN(Cc1ccc(F)cc1)C2=O", "method": "strand transfer", "value": "<10 µM"}
{"compound": "Cc1ccc(CN(C(=O)/C=C(\\O)C(=O)O)c2ccc(Cl)cc2)cc1", "method": "strand transfer", "value": "<70 µM"}
{"compound": "CC(C)n1c(=O)c(O)c2n(c1=O)C(CCO)CN(Cc1ccc(F)cc1)C2=O", "method": "strand transfer", "value": "<10 µM"}
{"compound": "CN(Cc1ccccc1-c1ccccc1)C(=O)/C=C(\\O)C(=O)O", "method": "strand transfer", "value": "<70 µM"}
{"compound": "O=C1c2c(O)c(=O)n(CC3COCCN3)c(=O)n2CCN1Cc1ccc(F)cc1", "method": "strand transfer", "value": "<10 µM"}
{"compound": "O=c1c(-c2cccc(O)c2)cn2ccn(Cc3cccc(Cl)c3)c(=O)c2c1O", "method": "ELISA", "value": "<0.01 µM"}
{"compound": "CC(C)CNC1CN(C)CCn2c1nc(C(=O)NCc1ccc(F)cc1)c(O)c2=O", "method": "ELISA", "value": "<10 µM"}
{"compound": "C[C@H](NC(=O)/C=C(\\O)C(=O)O)c1ccccc1", "method": "strand transfer", "value": ">70 µM"}
{"compound": "Cc1cc(CNC(=O)c2nc3n(c(=O)c2O)CCN(C2CC2)CC3N(C)C(=O)C(=O)N(C)C)ccc1F", "method": "ELISA", "value": "<10 µM"}
{"compound": "O=C(O)c1cc(F)ccc1CN1CCn2cc(-c3nccs3)c(=O)c(O)c2C1=O", "method": "ELISA", "value": "0.01–0.1 µM"}
{"compound": "CN1CCn2c(nc(C(=O)NCc3ccc(F)c(Cl)c3)c(O)c2=O)C1(C)C", "method": "ELISA", "value": "<10 µM"}
{"compound": "CC(C)(C)C(=O)Nc1cn2ccn(Cc3cccc(Cl)c3)c(=O)c2c(O)c1=O", "method": "ELISA", "value": "<0.01 µM"}
{"compound": "O=C(O)/C(O)=C/C(=O)N(Cc1ccc(F)cc1)Cc1ccc(Cl)cc1", "method": "strand transfer", "value": "<70 µM"}
{"compound": "O=C(NC(CCc1ccccc1)c1ccccc1)c1cn2c(c(O)c1=O)C(=O)N(Cc1cccc(Cl)c1)CC2", "method": "ELISA", "value": "0.01–0.1 µM"}
{"compound": "CC(C)n1c(=O)c(O)c2n(c1=O)C(CCN1CCc3ccccc3C1)CN(Cc1ccc(F)cc1)C2=O", "method": "strand transfer", "value": "<10 µM"}

3 of the rows above, restated:

{"compound": "CC(C)CNC1CN(C)CCn2c1nc(C(=O)NCc1ccc(F)cc1)c(O)c2=O", "method": "ELISA", "value": "<10 µM"}
{"compound": "CC(C)n1c(=O)c(O)c2n(c1=O)C(CCN1CCc3ccccc3C1)CN(Cc1ccc(F)cc1)C2=O", "method": "strand transfer", "value": "<10 µM"}
{"compound": "O=C1c2c(O)c(=O)c(-c3nccs3)cn2CCN1CCCCc1ccccc1", "method": "ELISA", "value": "0.01–0.1 µM"}